Test system: CD3+ CD4+ T cells in peripheral blood mononuclear cells (PBMC)

tetanus toxoid [TT, reference compound] was tested, and the “number of responding individuals as compared to buffer only” value was 49.

— patent US10329331B2, “Polypeptides” (priority 2010, dated 2019)
